Pooled drug test results. Numbers come from NIAID ChemDB, via PubChem.

Shared fields: whole-cell or culture tests; organism: Herpes simplex virus 2; cell line: HFF; measure: EC50

Lines come from different laboratories, so protocols vary.

structure	strain or isolate	read by	value
COC(c1cn([C@H]2C[C@H](O)[C@@H](CO)O2)c(=O)[nH]c1=O)C(Br)I	MS	cytopathic effect	>100 µM
Nc1nc2c(ncn2COCCO)c(=O)[nH]1		plaque count	1.8 µg/mL
COC(=O)[C@H](C)NP(=O)(OCC1C/C1=C/n1cnc2c(N)ncnc21)Oc1ccccc1		cytopathic effect	1.1 µM
O=c1[nH]c(=O)n(COC(CO)CO)nc1Cc1ccc(Cl)cc1		cytopathic effect	>100 µM
Cc1cn(C(CCN=[N+]=[N-])OCCO)c(=O)[nH]c1=O		cytopathic effect	>200 µM
Cc1cn([C@@H]2O[C@H](CO)[C@H]2CO)c(=O)[nH]c1=O	G	plaque count	0.88 µg/mL
C=CCOc1nc(N)nc2c1ncn2/C=C1/C[C@@H]1CO		cytopathic effect	>366 µM
O=C(NCc1ccc(Cl)cc1)c1cn(N2CCOCC2)c2ccc(CN3CCOCC3)cc2c1=O	MS	plaque count	2.5 µM
CCCCC(C)(C)[C@H](O)/C=C/[C@H]1C=CC(=O)[C@@H]1CCCCCCC(=O)O	G	hybridisation	5.7 µg/mL
O=c1[nH]c(=O)n([C@H]2C[C@H](O)[C@@H](CO)O2)cc1C(O)C(Br)Br	MS	cytopathic effect	6.3 µM
C=CCNc1nc(N)nc2c1ncn2/C=C1/C[C@@H]1CO		cytopathic effect	>367 µM
COc1nc(N)nc2c1ncn2/C=C1/C[C@@H]1CO		plaque count	73 µM
C#CCNc1nc(N)nc2c1ncn2/C=C1/C[C@@H]1CO		cytopathic effect	>370 µM
CC(C)Nc1nc2cc(Cl)c(Cl)cc2n1[C@H]1O[C@@H](CO)[C@H](O)[C@@H]1O		plaque count	>53 µM
O=C(NCc1ccc(Cl)cc1)c1cn2c3c(cc(CN4CCOCC4)cc3c1=O)OC(c1cccnc1)C2	13078 (ACV-resistant)	plaque count	5.5 µM
Cc1ccc(Cc2nn(COCCO)c(=O)[nH]c2=O)cc1		cytopathic effect	>100 µM
COC(=O)[C@H](C)NP(=O)(OC[C@H]1C/C1=C/n1cnc2c(=O)[nH]c(N)nc21)Oc1ccccc1		cytopathic effect	181 µM
Cc1cn([C@H]2C[C@H](O[Si]34OCCN(CCO3)CCO4)[C@@H](CO)O2)c(=O)[nH]c1=O		cytopathic effect	>100 µg/mL
CC(C)[C@H](NC(=O)CN)C(=O)OCC(COC(=O)[C@@H](NC(=O)CN)C(C)C)OCn1cnc2c(=O)[nH]c(N)nc21		plaque count	0.5 µM
Nc1ccn(C[C@@H](CO)OCP(=O)(O)O)c(=O)n1	MS	plaque count	5.1 µM
CCCC(=O)OCC(COC(=O)CCC)OCn1cnc2c(=O)[nH]c(N)nc21		plaque count	100 µg/mL
O=c1[nH]c(=O)n([C@H]2C[C@H](O)[C@@H](CO)O2)cc1/C=C/I		cytopathic effect	4 µM
CCCCCCCCCCCCCCCCCCOCCCOP1(=O)CO[C@@H](Cn2ccc(N)nc2=O)CO1	SR	plaque count	>1 µM
NC[C@H]1C[C@@H](n2cnc3c(N)ncnc32)[C@H](O)[C@@H]1O		cytopathic effect	27.3 µg/mL
CCCCCCCCCCCCCCCCOP(=O)(O)CO[C@H](CO)Cn1ccc(N)nc1=O	G	plaque count	0.6 µM
O=c1[nH]c(=O)n(COCCO)nc1Cc1ccc(O)cc1		cytopathic effect	>100 µM
NC(=S)c1cn(COCCO)c2ncnc(N)c12	MS	plaque count	30 µM
O=c1[nH]c(=O)n(COCCO)nc1Cc1ccccc1		cytopathic effect	>100 µM
Nc1nc(NC2CC2)c2ncn(/C=C3/C[C@@H]3CO)c2n1		cytopathic effect	>73 µM
CC(N)c1cn([C@H]2C[C@H](O)[C@@H](CO)O2)c(=O)[nH]c1=O	MS	cytopathic effect	1 µM
CC(=O)N[C@H]1C[C@@H](n2cnc3c(N)ncnc32)[C@H](O)[C@@H]1O			>100 µg/mL
CC[C@@]1(Cl)C(=O)NC(=O)N([C@H]2C[C@H](O)[C@@H](CO)O2)[C@H]1OC	MS	cytopathic effect	>50 µM
C=Cc1cn([C@H]2C[C@H](OC(=O)C3=CN(C)C=CC3)[C@@H](CO)O2)c(=O)[nH]c1=O		cytopathic effect	1.1 µM
COC(c1cn([C@H]2C[C@H](O)[C@@H](CO)O2)c(=O)[nH]c1=O)C(Cl)Br	MS	cytopathic effect	>125 µM
COc1nc(N)nc2c1ncn2C=C1CC1CO		cytopathic effect	364 µM
CCCCCCCCCCCCCCCCOP1(=O)CO[C@@H](Cn2ccc(N)nc2=O)CO1	G	plaque count	>1 µM
Nc1nc2c(ncn2[C@@H](CCO)OCCO)c(=O)[nH]1		cytopathic effect	>200 µM
COC(c1cn([C@H]2C[C@H](O)[C@@H](CO)O2)c(=O)[nH]c1=O)C(Cl)I	MS	cytopathic effect	>107 µM
Nc1nc2c(ncn2COCCO)c(=O)[nH]1	T7788 (acyclovir-susceptible)	cytopathic effect	2.5 µg/mL
CCCCCOc1nc(N)nc2c1ncn2/C=C1/C[C@@H]1CO		cytopathic effect	>329.6 µM
COC(c1cn([C@H]2C[C@H](O)[C@@H](CO)O2)c(=O)[nH]c1=O)C(I)I	MS	cytopathic effect	>93 µM
CCO[C@@H]1[C@@H](OCC)[C@H](Cc2ccccc2)O[C@@H]2CO[C@@H](c3ccc(Cl)cc3)O[C@@H]12		cytopathic effect	<0.03 µg/mL
COc1cc(OC)c(NC(=S)Nc2ccc(NC(=O)c3ccccc3F)cc2Cl)cc1Cl	186	ELISA	8.9 µg/mL
CC(=O)Oc1ccc([C@@H]2CC(=O)c3c(cc(OC(C)=O)c(-c4c(OC(C)=O)cc5c(c4OC(C)=O)C(=O)C[C@@H](c4ccc(OC(C)=O)cc4)O5)c3OC(C)=O)O2)cc1		cytopathic effect	>4 µg/mL
Cc1cc(C2CCCCC2)n(O)c(=O)c1	Clinical isolate	plaque count	1 µM
CC(C)[C@H](N)C(=O)OCC(COC(=O)[C@@H](N)C(C)C)OCn1cnc2c(=O)[nH]c(N)nc21		plaque count	0.44 µM
Cc1cn([C@@]23C[C@H](O)[C@@H](CO)[C@@H]2C3)c(=O)[nH]c1=O		plaque count	>20 µg/mL
O=c1[nH]c(=O)n([C@H]2C[C@H](O)[C@@H](CO)O2)cc1I		cytopathic effect	0.2 µM
Cn1cc(C(=O)NCc2ccc(Cl)cc2)c(=O)c2cc(CN3CCOCC3)ccc21	11361 (ACV-resistant)	plaque count	3.7 µM
Cc1cn(C(CCO)OCCO)c(=O)[nH]c1=O		cytopathic effect	>200 µM
C#CCNc1nc(N)nc2c1ncn2/C=C1/C[C@@H]1CO		cytopathic effect	>370 µM
Nc1nc2c(ncn2/C=C2/CC2(CO)CO)c(=O)[nH]1	MS	plaque count	>380 µM
Cc1cc(C)c(OC(=O)c2ccc(Cl)cc2)c(=O)c(C)c1	Clinical isolate	plaque count	0.84 µM
CCCCCSc1nc(N)nc2c1ncn2/C=C1/C[C@@H]1CO		cytopathic effect	310.9 µM
O=c1[nH]c(=O)n(COCCO)nc1Cc1ccc(Cl)cc1		cytopathic effect	>100 µM
COC(=O)[C@H]1[C@@H]2C[C@@H](O[C@@H]3O[C@H](C)[C@@H](O)[C@H](N)[C@@H]3O)/C=C/C=C/C=C/C=C/C=C/C=C/C=C/[C@H](C)[C@@H](O)[C@H](C)[C@H](C)OC(=O)C[C@H](O)C[C@H](O)[C@@H](O)CC[C@H](O)C[C@H](O)C[C@](O)(C[C@@H]1O)O2		plaque count	1 µg/mL
O[C@@H]1[C@H](O)[C@H](O)CO[C@H]1n1c(Br)nc2cc(Cl)c(Cl)cc21		plaque count	>50 µM
Nc1nc(NCC2CC2)c2ncn(/C=C3/C[C@@H]3CO)c2n1		cytopathic effect	>249 µM
Nc1ncnc2c1ncn2/C=C1/CC1(CO)CO		cytopathic effect	>380 µM
Nc1nc2c(ncn2COCCO)c(=O)[nH]1	X-79	plaque count	0.5 µg/mL
CC(C)Oc1ccccc1CNC(=O)c1ccc2cnccc2n1	E194	plaque count	0.6 µM
Nc1ccn(C=C2C[C@H]2CO)c(=O)n1		cytopathic effect	104 µM
Nc1nc(OCC2CC2)c2ncn(/C=C3/C[C@@H]3CO)c2n1		cytopathic effect	172 µM
CCc1cn([C@H]2C[C@H](O)[C@@H](CO)O2)c(=O)[nH]c1=O	MS	cytopathic effect	>170 µM
CCCCCCCC/C=C\CCCCCCCOCCCOP1(=O)CO[C@@H](Cn2ccc(N)nc2=O)CO1	G	plaque count	0.8 µM
CC(=O)NC(CCc1ccc(Cl)c(Cl)c1)c1cccc(O)c(=O)c1	Clinical isolate	plaque count	1.67 µM

4 of the rows above, restated:

| structure | strain or isolate | read by | value |
|---|---|---|---|
| C=CCOc1nc(N)nc2c1ncn2/C=C1/C[C@@H]1CO |  | cytopathic effect | >366 µM |
| CCc1cn([C@H]2C[C@H](O)[C@@H](CO)O2)c(=O)[nH]c1=O | MS | cytopathic effect | >170 µM |
| NC[C@H]1C[C@@H](n2cnc3c(N)ncnc32)[C@H](O)[C@@H]1O |  | cytopathic effect | 27.3 µg/mL |
| CCCCC(C)(C)[C@H](O)/C=C/[C@H]1C=CC(=O)[C@@H]1CCCCCCC(=O)O | G | hybridisation | 5.7 µg/mL |

ECn: concentration that inhibits the pathogen or its effect by n%. An empty or dashed field is not shown.